Measurements reported in PubChem BioAssay AID624099 (ICCB-Longwood, 2012).

- Aim: 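Human genes that papillomavirus E2 requires to repress the HPV18 LCR promoter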 (primary screen)
- Cell system: human C33A cervical carcinoma cells (HPV-negative) stably expressing BPV1 E2 and an HPV18 LCR luciferase reporter
- Reagent: siRNA pool against human genes, 40 nM
- Time to read-out: 72 h
- Measurement: 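HPV18 LCR reporter light per well, converted to plate-wise z-scores that exclude control wells, and averaged over triplicate plates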
- Direction: mean z-score and z-score: higher = stronger reporter signal, weaker E2 silencing
- Call rule: 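Mean z ≥ 2 together with z ≥ 2 in two or more of the three replicates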
Shown is one part, drawn at random, of about 21,000 reagents. In the full data, 497 (2.4%) were called active. 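Higher z means weaker E2 silencing; only reporter increases were scored, and knock-downs that hurt cell survival may mask genuine repressor factors.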 Entries without a mark were called inactive. Reagents against one gene are numbered here.

| target | reagent | mean z-score | z-score, replicate A | z-score, replicate B | z-score, replicate C |
| --- | --- | --- | --- | --- | --- |
| OBP2B | 1 | -0.88 | -0.87 | -1.4 | -0.37 |
| RPL31P51 | 1 | 0.3 | 0.32 | 0.92 | -0.35 |
| EPM2A | 1 | -0.2 | -0.07 | -0.26 | -0.27 |
| ZNF597 | 1 | 1.07 | 1.5 | 0.6 | 1.11 |
| TBC1D32 | 1 | -0.42 | 0.04 | -0.44 | -0.86 |
| SCRT2 | 1 | 1.14 | 1.1 | 0.94 | 1.37 |
| PPCS | 1 | -0.62 | -0.77 | -0.61 | -0.49 |
| ABLIM3 | 1 | 0.75 | 1.02 | 0.57 | 0.66 |
| LRP5L | 1 | -0.08 | -0.04 | -0.48 | 0.29 |
| UBR4 | 1 | 0.28 | -0.13 | 0.3 | 0.66 |
| METTL22 | 1 | -1.4 | -1.22 | -1.48 | -1.51 |
| SPINT2 | 1 | 0.79 | 0.86 | 0.63 | 0.87 |
| ATP5PO | 1 | 0.35 | 0.29 | 0.27 | 0.5 |
| EPC1 | 1 | 2.14 | 2.56 | 1.91 | 1.95 |
| GATC | 1 | -0.96 | -0.68 | -1.08 | -1.12 |
| SIK2 | 1 | -0.78 | -0.43 | -0.95 | -0.96 |
| IGHV3OR16-8 | 1 | 0.15 | 0.13 | 0.08 | 0.25 |
| FGD6 | 1 | 1.55 | 1.64 | 1.71 | 1.31 |
| ZNF254 | 1 | -0.38 | -0.32 | -0.44 | -0.39 |
| ZNF254 | 2 | 1.05 | 1.29 | 0.95 | 0.91 |
| LOC400481 (retired record) | 1 | -0.59 | -1.02 | -0.16 | -0.59 |
| PFKFB4 | 1 | -0.35 | -0.31 | -0.66 | -0.09 |
| LINC00858 | 1 | -1.45 | -1.47 | -1.12 | -1.78 |
| LOC387701 (retired record) | 1 | 0.42 | 0.24 | 0.68 | 0.33 |
| SNAI3-AS1 | 1 | 0.51 | 0.72 | 0.2 | 0.6 |
| SIMC1P1 | 1 | 0.21 | 0.54 | 0.04 | 0.05 |
| RPL31P50 | 1 | 0.51 | 0.19 | 0.73 | 0.61 |
| TAS2R40 | 1 | -0.19 | -0.26 | -0.23 | -0.09 |
| SLC22A10 | 1 | 0.27 | 0.58 | 0.04 | 0.19 |
| SCT | 1 | 2.51 (active) | 3.01 | 2.06 | 2.46 |
| ACAD11 | 1 | -0.52 | -0.46 | -0.54 | -0.55 |
| PRLHR | 1 | 0.51 | 0.64 | 0.35 | 0.54 |
| PCDHA8 | 1 | 0.08 | 0 | -0.06 | 0.28 |
| ZNF536 | 1 | -1.17 | -1.36 | -1.19 | -0.97 |
| MBTPS2 | 1 | -0.77 | -1 | -0.49 | -0.81 |

Next part; the last 4 above are carried over.
| target | reagent | mean z-score | z-score, replicate A | z-score, replicate B | z-score, replicate C |
| --- | --- | --- | --- | --- | --- |
| PRLHR | 1 | 0.51 | 0.64 | 0.35 | 0.54 |
| PCDHA8 | 1 | 0.08 | 0 | -0.06 | 0.28 |
| ZNF536 | 1 | -1.17 | -1.36 | -1.19 | -0.97 |
| MBTPS2 | 1 | -0.77 | -1 | -0.49 | -0.81 |
| HNF1B | 1 | -1.52 | -1.75 | -1.47 | -1.35 |
| NBPF5P | 1 | -1.93 | -1.87 | -2.07 | -1.84 |
| CEP85 | 1 | -1.67 | -1 | -2.07 | -1.96 |
| CXCR5 | 1 | 1.07 | 1.24 | 0.91 | 1.07 |
| UPK3B | 1 | 0.96 | 0.37 | 1.36 | 1.15 |
| NUP210L | 1 | 0.61 | 0.06 | 0.7 | 1.07 |
| PHAX | 1 | -0.03 | 0.22 | -0.08 | -0.23 |
| ACAA2 | 1 | -0.32 | -0.2 | -0.31 | -0.46 |
| C4orf17 | 1 | 0.6 | 0.29 | 0.66 | 0.86 |
| TRIM68 | 1 | 2.69 (active) | 2.79 | 2.52 | 2.74 |
| ARID1B | 1 | -1.03 | -1.22 | -0.91 | -0.96 |
| MIIP | 1 | 0.78 | 0.51 | 0.84 | 1 |
| PPIAP87 | 1 | -0.74 | -0.17 | -1.03 | -1.01 |
| KLHL41 | 1 | 0.37 | 0.34 | 0.53 | 0.25 |
| AGMO | 1 | -0.26 | 0 | -0.38 | -0.38 |
| ATAD2 | 1 | -0.79 | -0.66 | -0.44 | -1.27 |
| PSMD12 | 1 | 0.14 | 0.23 | 0.01 | 0.18 |
| MAGEB6 | 1 | 0.17 | 0.32 | -0.06 | 0.26 |
| H2BW1 | 1 | 0.58 | 0.65 | 0.67 | 0.42 |
| C2CD3 | 1 | -0.54 | -1.01 | -0.25 | -0.36 |
| CDH17 | 1 | 0.64 | 0.65 | 0.55 | 0.72 |
| LOC389707 (retired record) | 1 | -0.02 | -0.33 | -0.35 | 0.63 |
